Source: patent publication US20080299131A1, “Anti-Viral Compositions” (priority 2004, published 2008)

Tested on: EEV spread (comet-shaped plaques)
Type: cell-based, Vaccinia virus

heparin [HP]
comet tails (HP 5, 25 or 100 μg/ml with mAb 2D5 (1/500)): reduced severely and were almost abolished at the higher HP concentrations | comet-shaped plaque formation (HP alone, 5, 25 or 100 μg/ml): not inhibited
